Experimental data taken from patent US20220152080A1 (priority 2019, published 2022).

Tested on: WSN/H1N1
Assay: multi passaging resistance experiment, A549 cells infected with WSN/H1N1, plaque titration

SMILES: O=C(NOCC1CC1)c1ccc(F)c(F)c1Nc1ccc(I)cc1Cl [CI-1040]
- average titer compared to the DMSO control, round 5 to round 12 (10 μM inhibitor, DMSO control = 100%): 8.45%±3.41%
- development of resistance on passaging with increasing concentrations (multi passaging, A549, WSN/H1N1 MOI 0.01): high barrier towards development of resistance
- reduction of viral titers compared to the DMSO control, first round (round 1, 1 μM inhibitor, 24 h p.i., MOI 0.01): 64.75%±0.32%
